Experimental data from patent US20240261250A1 (priority 2020, published 2024).

The chains behind the UniProt entries cited, without tags or fusion partners.
UniProt P42356, whole entry, looked up: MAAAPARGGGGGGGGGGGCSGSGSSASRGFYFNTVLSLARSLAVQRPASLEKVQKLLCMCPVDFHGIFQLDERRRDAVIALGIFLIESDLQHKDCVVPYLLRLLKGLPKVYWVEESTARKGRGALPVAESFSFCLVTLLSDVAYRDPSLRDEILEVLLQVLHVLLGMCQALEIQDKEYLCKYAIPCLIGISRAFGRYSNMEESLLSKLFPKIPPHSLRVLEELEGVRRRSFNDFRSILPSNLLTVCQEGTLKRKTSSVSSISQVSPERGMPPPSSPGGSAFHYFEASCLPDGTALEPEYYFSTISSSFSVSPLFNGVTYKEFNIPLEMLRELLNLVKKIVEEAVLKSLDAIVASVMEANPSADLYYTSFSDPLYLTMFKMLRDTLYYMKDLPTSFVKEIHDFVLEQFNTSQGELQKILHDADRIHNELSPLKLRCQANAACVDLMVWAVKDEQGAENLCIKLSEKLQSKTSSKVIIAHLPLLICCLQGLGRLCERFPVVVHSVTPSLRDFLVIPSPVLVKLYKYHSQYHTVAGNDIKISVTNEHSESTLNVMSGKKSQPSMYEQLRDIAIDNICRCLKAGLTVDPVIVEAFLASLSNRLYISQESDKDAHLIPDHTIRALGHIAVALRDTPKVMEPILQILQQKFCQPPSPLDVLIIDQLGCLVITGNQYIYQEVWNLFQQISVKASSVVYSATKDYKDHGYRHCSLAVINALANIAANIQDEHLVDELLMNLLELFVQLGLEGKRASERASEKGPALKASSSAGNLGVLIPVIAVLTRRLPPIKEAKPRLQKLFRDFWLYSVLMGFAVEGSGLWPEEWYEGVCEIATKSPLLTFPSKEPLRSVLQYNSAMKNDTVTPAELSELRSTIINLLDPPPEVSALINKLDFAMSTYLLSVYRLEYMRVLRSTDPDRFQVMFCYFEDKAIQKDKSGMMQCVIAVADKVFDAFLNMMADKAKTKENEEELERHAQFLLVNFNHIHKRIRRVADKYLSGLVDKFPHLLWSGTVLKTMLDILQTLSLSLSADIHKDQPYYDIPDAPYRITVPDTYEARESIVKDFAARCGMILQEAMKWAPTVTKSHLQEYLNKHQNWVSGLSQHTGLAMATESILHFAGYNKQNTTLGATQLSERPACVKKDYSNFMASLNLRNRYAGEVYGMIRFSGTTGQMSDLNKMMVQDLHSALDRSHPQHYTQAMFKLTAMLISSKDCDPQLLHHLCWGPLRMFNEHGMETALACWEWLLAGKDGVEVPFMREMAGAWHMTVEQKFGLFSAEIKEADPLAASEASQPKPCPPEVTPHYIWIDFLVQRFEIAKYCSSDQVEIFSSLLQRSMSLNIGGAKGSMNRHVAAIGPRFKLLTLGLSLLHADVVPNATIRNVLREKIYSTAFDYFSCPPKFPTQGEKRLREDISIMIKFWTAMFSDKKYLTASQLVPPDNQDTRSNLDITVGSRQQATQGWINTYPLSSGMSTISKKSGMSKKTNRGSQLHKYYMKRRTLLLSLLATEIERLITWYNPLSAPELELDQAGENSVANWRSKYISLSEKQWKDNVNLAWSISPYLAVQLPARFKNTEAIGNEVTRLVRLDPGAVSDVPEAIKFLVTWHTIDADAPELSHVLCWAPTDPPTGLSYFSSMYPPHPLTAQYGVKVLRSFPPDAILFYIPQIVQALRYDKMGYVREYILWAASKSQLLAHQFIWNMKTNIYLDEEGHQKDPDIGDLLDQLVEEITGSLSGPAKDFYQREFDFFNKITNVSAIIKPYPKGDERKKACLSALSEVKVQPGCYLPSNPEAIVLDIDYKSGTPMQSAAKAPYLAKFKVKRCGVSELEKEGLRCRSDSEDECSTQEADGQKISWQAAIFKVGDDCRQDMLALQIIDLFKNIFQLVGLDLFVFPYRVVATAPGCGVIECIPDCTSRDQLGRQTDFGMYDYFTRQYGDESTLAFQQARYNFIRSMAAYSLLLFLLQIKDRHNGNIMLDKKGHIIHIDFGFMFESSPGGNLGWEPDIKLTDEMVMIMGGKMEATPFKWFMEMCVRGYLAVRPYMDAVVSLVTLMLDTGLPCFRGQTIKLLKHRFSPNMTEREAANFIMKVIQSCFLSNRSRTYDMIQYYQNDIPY

Assays:
[1] = system: PC12 cell line transfected with α-synuclein over-expression plasmid; settings: 50 nM, 4 hours
[2] = system: SH-SY5Y cell line transfected with α-synuclein over-expression plasmid; settings: 4 hours
[3] = system: primary hippocampal neurons; assay: Lysosomal fluorescence of primary hippocampal neurons; settings: 100 nM PAO, WT primary neuronal cells, vs control group
[4] = system: primary microglia lysosomes; assay: Recovery of microglial lysosomal fluorescence after BPB exit from lysosomes; settings: PAO after 60 min BPB pre-incubation, WT microglia
[5] = system: PC12 cell line transfected with HTT (1-586aa) over-expression plasmid; settings: 25 nM, 50 nM, 75 nM and 100 nM, 4 hours, vs HTT OE group
SH-SY5Y cells [6] = assay: MTT cell viability, CBE model with Baf-A1 blockade; settings: 100 μM CBE and 25 nM, 50 nM and 75 nM PAO co-treated, vs 100 μM CBE
SH-SY5Y cells [7] = assay: MTT cell viability, CBE-induced cell damage; settings: 6.25 nM, 12.5 nM, 25 nM, 50 nM, 75 M and 100 nM PAO for 24 hours with 100 μM CBE, vs 100 μM CBE-treated group
[8] = system: α-synuclein over-expressing cells; assay: Intracellular α-synuclein protein level, ELISA and Western blot; settings: 75 nM and 100 nM
[9] = system: primary microglia lysosomes; assay: BPB entry into microglial lysosomes (kiss-and-run), quenching of lysosomal fluorescence; settings: PAO + 1 mM BPB, WT microglia
[10] = system: primary microglia lysosomes; assay: Microglial lysosomal exocytosis, LysoTracker live-cell imaging; settings: 100 nM PAO, WT microglia
SH-SY5Y cells [11] = assay: Lyso-tracker labelling, CBE-induced lysosome aggregation; assay type: cell-based; settings: 50 nM or 75 nM PAO for 5 or 10 minutes after 100 μM CBE for 72 hours
SH-SY5Y cells [12] = assay: GlcCer content of cells by LC-MS; assay type: cell-based; settings: 100 μM CBE and 50 nM PAO co-treated, vs 100 μM CBE
SH-SY5Y cells [13] = assay: Autophagy markers LC3B and p62, Western blot and immunofluorescence; assay type: cell-based; settings: CBE 48 hours, then PAO at different concentrations 24 hours, Western blot
[14] = system: SH-SY5Y cell line transfected with α-synuclein over-expression plasmid; settings: PAO 6.25, 12.5, 25, 50, 75, 100 nM for 12 hours, vs α-syn-OE group
PI4KIIIα = PI4KIIIα (Homo sapiens, UniProt P42356); settings: previous studies; cited from earlier work
primary microglia = settings: 100 nM PAO, WT cells, at 8, 15, 30 and 60 minutes vs control group, p<0.05
SH-SY5Y cells [15] = assay: Filipin staining of cholesterol storage caused by U18666A; assay type: cell-based; settings: 10 μM U18666A and 35 nM, 70 nM PAO, 24 hours, vs 10 μM U18666A alone

**Q.** Which “efflux of intracellular α-synuclein protein” value ([1]; 75 nM) does the source give for `Cc1ccc([As]=O)cc1` (stereo not drawn) here?
**A.** promoted the efflux of intracellular α-synuclein protein

**Q.** Which “extracellular α-synuclein protein level” value ([1]; 75 nM and 100 nM, vs α-synOE group without PAO) does the source give for `O=[As]c1ccccc1` (stereo not drawn) here?
**A.** significantly increased

**Q.** What about the “extracellular α-synuclein protein level” value [2] of the same compound?
**A.** same capability of promoting extracellular α-synuclein protein levels

**Q.** And the lysosomal fluorescence intensity [3]?
**A.** significantly decreased

**Q.** What about the “average decrease in lysosomal fluorescence intensity” value ([4]; first 200 seconds vs 0 seconds) of the same compound?
**A.** 41.8%

**Q.** What about the “increase (recovery) of lysosomal fluorescence” value ([4]; next 300 seconds, compared to 0 seconds) of the same compound?
**A.** 26.4%

**Q.** And the HTT protein secretion [5]?
**A.** significantly promoted HTT protein secretion

**Q.** What about the cell viability (SH-SY5Y cells [6]) of the same compound?
**A.** significantly increased

**Q.** And the cell viability rate (SH-SY5Y cells [7])?
**A.** significantly higher

**Q.** What about the “intracellular α-synuclein, Western blot” value ([8]; vs control group) of the same compound?
**A.** lower than that in the control group

**Q.** What about the “intracellular α-synuclein protein level, ELISA” value ([8]; vs α-syn OE group) of the same compound?
**A.** significantly reduced

**Q.** What about the “discoloration of lysosomal fluorescence in BPB solution” value (“discoloration … in BPB solution” for short) ([9]; at 10 seconds vs 0 seconds) of the same compound?
**A.** 22.3%

**Q.** What about the “discoloration … in BPB solution” value ([9]; at 100 seconds vs 0 seconds) of the same compound?
**A.** 62.8%

**Q.** What about the “discoloration … in BPB solution” value ([9]; at 400 seconds vs 0 seconds) of the same compound?
**A.** 75.5%

**Q.** What about the “discoloration … in BPB solution” value ([9]; at 500 seconds vs 0 seconds) of the same compound?
**A.** 78%

**Q.** And the “discoloration (decrease of lysosomal fluorescence intensity)” value ([10]; at 100 seconds vs 0 seconds)?
**A.** 5.2%

**Q.** And the “discoloration (decrease of lysosomal fluorescence intensity)” value ([10]; at 200 seconds vs 0 seconds)?
**A.** 47.4%

**Q.** What about the “discoloration (decrease of lysosomal fluorescence intensity)” value ([10]; at 400 seconds vs 0 seconds) of the same compound?
**A.** 68.5%

**Q.** What about the “discoloration (decrease of lysosomal fluorescence intensity)” value ([10]; at 500 seconds vs 0 seconds) of the same compound?
**A.** 70.1%

**Q.** What about the “Lyso-tracker labeled positive cells” value (SH-SY5Y cells [11]) of the same compound?
**A.** reduced

**Q.** And the “concentration of GlcCer in cells” value (SH-SY5Y cells [12])?
**A.** decreased

**Q.** What about the LC3B protein expression (SH-SY5Y cells [13]) of the same compound?
**A.** dose-dependently promoted

**Q.** What about the p62 protein level (SH-SY5Y cells [13]) of the same compound?
**A.** inhibited

**Q.** What about the cell viability rate [14] of the same compound?
**A.** significantly higher

**Q.** What about the “concentration at which PAO acts mainly on PI4KIIIα” value (PI4KIIIα) of the same compound?
**A.** < 5 µM

**Q.** What about the “extracellular ATP concentration” value (primary microglia) of the same compound?
**A.** significantly increased

**Q.** And the “Filipin staining fluorescence intensity” value (SH-SY5Y cells [15])?
**A.** decreased
